Data reported in ChEMBL document CHEMBL5108080 (J Med Chem, 2022).

Columns and labels:
[1] = Selectivity index, ratio of CC50 for human A549 cells to EC50 for group 2 influenza A virus H3N2 (A/Hong Kong-11/1968) infected in human A549 cells
[2] = Selectivity index, ratio of CC50 for human A549 cells to IC50 for VSV pseudotyped virus infected in A549 cells; type: toxicity, cell-based
[3] = Selectivity index, ratio of CC50 for human A549 cells to IC50 for […] influenza A H5N1 pseudotyped virus infected in A549 cells; type: toxicity, cell-based
[4] = Selectivity index, ratio of CC50 for human A549 cells to IC50 for group 2 influenza A H7N1 pseudotyped virus infected in A549 cells; type: toxicity, cell-based
[5] = Selectivity index, ratio of CC50 for human A549 cells to EC50 for group 2 influenza A virus H3N2 (A/Victoria361/2011) infected in human A549 cells
[6] = Selectivity index, ratio of CC50 for human A549 cells to EC50 for group 2 influenza A virus LPAI H7N7 (A/Netherlands/219/2003) infected in human A549 cells

What does the source list for `Oc1ccc(-c2nc3ncccn3c2NC2CCCCC2)cc1`?
Ratio CC50/EC50 [1]: > 270; Ratio CC50/IC50 [2]: > 1; Ratio CC50/IC50 [3]: > 2; Ratio CC50/IC50 [4]: > 1900; Ratio CC50/EC50 [5]: > 67

With `Fc1ccc(-c2nc3ncccn3c2NC2CCCCC2)cc1` as the compound, how does the Ratio CC50/EC50 [1] read?
Its Ratio CC50/EC50 is 310.

What about the Ratio CC50/IC50 [2] of the same compound?
The Ratio CC50/IC50 was 1.

And the Ratio CC50/IC50 [3]?
Its Ratio CC50/IC50 is 2.

And the Ratio CC50/IC50 [4]?
The Ratio CC50/IC50 was 4300.

And the Ratio CC50/EC50 [5]?
Its Ratio CC50/EC50 is 230.

Which results are given for `Cc1cc(Br)ccc1-c1nc2ncccn2c1NC1CCCCC1`?
Ratio CC50/EC50 [1]: 130; Ratio CC50/IC50 [2]: 1; Ratio CC50/IC50 [3]: 1; Ratio CC50/IC50 [4]: 260

With `COc1ccc(-c2nc3ncccn3c2NC2CCCCC2)cc1` as the compound, how does the Ratio CC50/EC50 [1] read?
Its Ratio CC50/EC50 is greater than 3300.

What about the Ratio CC50/IC50 [2] of the same compound?
The Ratio CC50/IC50 was 1.

What about the Ratio CC50/IC50 [3] of the same compound?
The Ratio CC50/IC50 was less than 1.

And the Ratio CC50/IC50 [4]?
The Ratio CC50/IC50 was greater than 2700.

What about the Ratio CC50/EC50 [5] of the same compound?
Its Ratio CC50/EC50 is greater than 150.

What does the source list for `c1ccc(-c2nc3ncccn3c2NC2CCCCC2)cc1`?
Ratio CC50/EC50 [1]: 1400; Ratio CC50/IC50 [2]: 1; Ratio CC50/IC50 [3]: 2; Ratio CC50/IC50 [4]: 1500; Ratio CC50/EC50 [5]: 130; Ratio CC50/EC50 [6]: 400

Which Ratio CC50/EC50 [1] does the source give for `CCOC(=O)C1=C[C@@H](OC(CC)CC)[C@H](NC(C)=O)[C@@H](N)C1` [OSELTAMIVIR] here?
The Ratio CC50/EC50 was greater than 4500.

What about the Ratio CC50/EC50 [5] of the same compound?
The Ratio CC50/EC50 was less than 10.

Which Ratio CC50/EC50 [1] does the source give for `Brc1ccc(-c2nc3ncccn3c2NC2CCCCC2)cc1` here?
Its Ratio CC50/EC50 is greater than 520.

And the Ratio CC50/IC50 [2]?
The Ratio CC50/IC50 was greater than 2.

And the Ratio CC50/IC50 [3]?
Its Ratio CC50/IC50 is greater than 1.

And the Ratio CC50/IC50 [4]?
The Ratio CC50/IC50 was greater than 71.

What about the Ratio CC50/EC50 [5] of the same compound?
The Ratio CC50/EC50 was greater than 67.

And the Ratio CC50/EC50 [6]?
Its Ratio CC50/EC50 is greater than 500.
